Measured values published in article PMC7482817 (Theranostics, 2020).

Test system: E. coli (mcr-1)
Assay: pEtN-lipid A conjugate by LC-MS/MS
Conditions: different concentrations of melatonin

COc1ccc2[nH]cc(CCNC(C)=O)c2c1 [Melatonin, N-acetyl-5-methoxytryptamine]
pEtN-lipid A conjugate (1920.3 Da): decreased pEtN-lipid A conjugate
